Anti-infective test results gathered from many reports (values: NIAID ChemDB through PubChem).

Shared fields: cytotoxicity tests; measure: CC50

a–b is a range or a potency band.

| structure | method | cells | result |
|---|---|---|---|
| CCOC(=O)C1=C(CN2CC(F)(F)[C@H]3[C@@H]2CCN3CC[C@](C)(O)C(=O)O)NC(c2nccs2)=N[C@H]1c1ccc(F)c(F)c1C | WST / absorbance | HepG2.2.15 | 90.6 µM |
| CN(Cc1ncccc1Br)Cc1nc2ccccc2n1CCC#N | MTT | C8166 | >10 µM |
| CCOC(=O)C1=C(CN2CC(F)(F)[C@H]3[C@@H]2CCN3C[C@@](C)(O)C(=O)O)NC(c2nccs2)=N[C@H]1c1cccc(F)c1F | WST / absorbance | HepG2.2.15 | >50 µM |
| Cc1ccc(S(=O)(=O)NCCc2ccc3c(n2)NCCC3)cc1 |  | PBMC | 50 µM |
| CN1CCN(CCC(=O)NC2CC3(N4CCCCC4)CC(c4ccccc4)C2C(c2ccccc2)C3)CC1 |  | Rat skeletal myoblasts | 61.06 µM |
| CN(C)c1cccc(CCNC(=O)Nc2cccc(F)c2)n1 |  | PBMC | 50 µM |
| Nc1nc(Cl)cc(NCC2(CO)CCC(OCc3ccccc3)C2)n1 |  | MDCK | 0.99–2.5 µM |
| OC[C@H]1O[C@H](Oc2ccccc2)C[C@@H](O)[C@@H]1O |  | LLC-MK2 | >1000 µM |
| CO/C=C(/C(=O)OC)[C@H](C)[C@@H](O)/C=C/c1ccccc1 |  | BHK | 50 µg/mL |
| O=C1NC(=O)/C(=C/c2ccc(-c3ccc(C#Cc4ccccc4)cc3)cc2)S1 | MTS | HepG2-NTCP | >10 µM |
| CC(C)=CCC1C[C@]2(CC=C(C)C)C(=O)/C(=C(/O)c3ccccc3)C(=O)[C@@](CC=C(C)C)(C2=O)C1(C)C |  | 3T3.T4.CCR5 | 1.13 µM |
| COC(=O)C1=C(CN2CC(F)(F)[C@@H]3[C@H]2CON3C[C@H](OC)C(C)(C)C(=O)O)NC(c2nccs2)=N[C@H]1c1ccc(F)c(F)c1C | WST / absorbance | HepG2.2.15 | >50 µM |
| C[C@H](Cc1ccc(OCCN2CCCC2)c(OCCN2CCCC2)c1)[C@@H](C)Cc1ccc(OCCN2CCCC2)c(OCCN2CCCC2)c1 |  | COS | 27.32 µM |
| O=C1NC(=O)/C(=C/c2ccc(OCc3ccc(-c4ccccc4)cc3)cc2)S1 | MTS | HepG2-NTCP | >10 µM |
| O=C1/C(=C/c2cccs2)CCc2ccccc21 |  | Huh-7 cells and HepG2 | 2738 µM |
| FC(F)(F)c1ccc(NC(=S)NCCc2ccc3c(n2)NCCC3)cc1 |  | PBMC | 0.2 µM |
| COC(=O)C1=C(CN2CC(F)(F)[C@H]3[C@@H]2CCN3CC[C@](C)(O)C(=O)O)NC(c2nccs2)=N[C@H]1c1ccc(F)c(F)c1Cl | WST / absorbance | HepG2.2.15 | >50 µM |
| CN1CCN(c2ccnc3nc(CN(C)Cc4ncccc4CCC#N)[nH]c23)CC1 | MTT | C8166 | >10 µM |
| O=C(NCCc1ccccc1)NCCc1cccc(-n2ccnc2)n1 |  | PBMC | 50 µM |
| Nc1nc(Cl)cc(NCC2(CO)CC(OCc3ccccc3)C2)n1 |  | MDCK | 1.7–4.3 µM |
| Cc1nc2c(OC(F)F)cccc2n1-c1ccc(C(=O)NC2CC2)s1 | resazurin | Kidney epithelial cells | >62 µM |
| CCOC(=O)C1=C(CN2CC(F)(F)[C@H]3[C@@H]2CCN3CC[C@](C)(O)C(=O)O)NC(c2nccs2)=N[C@H]1c1ccc(F)c(F)c1Cl | WST / absorbance | HepG2.2.15 | 50 µM |
| O[C@@H]1[C@@H](O)[C@H](Oc2ccccc2)O[C@H](CCl)[C@H]1O |  | LLC-MK2 | 580 µM |
| Cn1cc(C(=O)O)c(=O)c2cc(F)c(N3CC=C(c4ccccc4)CC3)c(C(F)(F)F)c21 | MTT | U1 | 0.62 µM |
| COC(=O)C1=C2Nc3ccccc3[C@@]23CCN2C[C@]4(C[C@@H]5C[C@]67CC(=O)O[C@H]6CCC6NC[C@@]8(c9cccc(OC)c9N(C4)[C@@]58O)[C@@H]67)[C@@H]4OCC[C@]4(C1)[C@H]23 | absorbance | HL-60 | 8 µM |
| CCOC(=O)C1=C(CN2CC(F)(F)[C@@H]3[C@H]2CON3[C@@H](C)[C@@H](O)C(C)(C)C(=O)O)NC(c2nccs2)=N[C@H]1c1cccc(F)c1C | WST / absorbance | HepG2.2.15 | >6.25 µM |
| CO/C=C1\C[C@H](/C=C/c2ccccc2)OC1=O |  | HeLa S3 | >50 µg/mL |
| OC[C@H]1O[C@H](Oc2ccc(Cl)cc2)C[C@@H](O)[C@@H]1O |  | LLC-MK2 | 240 µM |
| C[C@H](Cc1ccc2oc(=O)oc2c1)[C@@H](C)Cc1ccc2oc(=O)oc2c1 |  | COS | 9.84 µM |
| Nc1nc2c(ncn2COC(CO)CO)c(=O)[nH]1 |  | BFU-E | 39 µM |
| CN1CCN(CC(=O)NC2CC3(N4CCN(C)CC4)CC(c4ccccc4)C2C(c2ccccc2)C3)CC1 |  | Rat skeletal myoblasts | 42.08 µM |
| O=C1NC(=O)C(Cc2ccc(OCc3ccc(-c4ccccc4)cc3)cc2)S1 | MTS | HepG2-NTCP | >10 µM |
| CCC(CC)(CO)CNc1cc(Cl)nc(N)n1 |  | MDCK | 220 µM |
| COCCOc1ccccc1NC(=O)NCCc1ccc2c(n1)NCCC2 |  | PBMC | 50 µM |
| Nc1ccnc(N)n1 |  | MDCK | >910 µM |
| CCOC(=O)C1=C(CN2CC(F)(F)[C@H]3[C@@H]2CON3C[C@H](O)C(C)(C)C(=O)O)NC(c2nc(C)cs2)=N[C@H]1c1cccc(F)c1C | WST / absorbance | HepG2.2.15 | 21.7 µM |
| OC[C@H]1O[C@@H](Oc2ccc(Cl)cc2)[C@H](O)[C@@H](O)[C@@H]1O |  | LLC-MK2 | 650 µM |
| CCOC(=O)C1=C(CN2CC(F)(F)[C@@H]3[C@H]2CON3C[C@@H](F)C(C)(C)C(=O)O)NC(c2nccs2)=N[C@@]1(C)c1cccc(F)c1C | WST / absorbance | HepG2.2.15 | 25 µM |
| CC(NC(=O)NCCc1ccc2c(n1)NCCC2)c1ccccc1 |  | PBMC | 50 µM |
| CN1CCN(c2ccnc3nc(CN(CCCCN)Cc4c(F)cccc4F)[nH]c23)CC1 | MTT | C8166 | >10 µM |
| C[C@H](Cc1ccc(OC(=O)N2CCCCC2)c(OC(=O)N2CCCCC2)c1)[C@@H](C)Cc1ccc(OC(=O)N2CCCCC2)c(OC(=O)N2CCCCC2)c1 |  | COS | 5.53 µM |
| O=C(CSc1nc(-c2cccs2)c2c(n1)-c1ccccc1CC2)NN1C(=O)c2ccccc2C1=O |  | HUh-7 and HepG2 | 215 µM |
| COC1CCCCC1NC(=O)NCCc1ccc2c(n1)NCCC2 |  | PBMC | 50 µM |
| c1ccc(C2CC3(N4CCCCC4)CC(c4ccccc4)C2N(CCCN2CCCCC2)C3)cc1 |  | Rat skeletal myoblasts | 138.3 µM |
| O=C(NCCc1ccc2c(n1)NCCC2)Nc1cccc(C(F)(F)F)c1F |  | PBMC | 4 µM |
| CC(C)c1cccnc1CN(CCCCN)Cc1nc2nccc(N3CCN(C)CC3)c2[nH]1 | MTT | C8166 | >10 µM |
| CCOC(=O)C1=C(CN2CC(F)(F)[C@H]3[C@@H]2CCN3CC[C@](C)(O)C(=O)O)NC(c2nccs2)=N[C@H]1c1cccc(F)c1C | WST / absorbance | HepG2.2.15 | >100 µM |
| CN(CCc1ccc2c(n1)NCCC2)C(=O)Nc1ccc(C(F)(F)F)cc1 |  | PBMC | 50 µM |
| OC[C@H]1O[C@@H](n2c(Br)nc3cc(Cl)c(Cl)cc32)[C@H](O)[C@@H]1O |  | CEM-CD+4 | 35–72 µM |
| CCOC(=O)CCSc1nc(-c2cccs2)c2c(n1)-c1ccccc1CC2 |  | HUh-7 and HepG2 | 716 µM |

Repeating the final 5 entries:

structure,method,cells,result
CC(C)c1cccnc1CN(CCCCN)Cc1nc2nccc(N3CCN(C)CC3)c2[nH]1,MTT,C8166,>10 µM
CCOC(=O)C1=C(CN2CC(F)(F)[C@H]3[C@@H]2CCN3CC[C@](C)(O)C(=O)O)NC(c2nccs2)=N[C@H]1c1cccc(F)c1C,WST / absorbance,HepG2.2.15,>100 µM
CN(CCc1ccc2c(n1)NCCC2)C(=O)Nc1ccc(C(F)(F)F)cc1,,PBMC,50 µM
OC[C@H]1O[C@@H](n2c(Br)nc3cc(Cl)c(Cl)cc32)[C@H](O)[C@@H]1O,,CEM-CD+4,35–72 µM
CCOC(=O)CCSc1nc(-c2cccs2)c2c(n1)-c1ccccc1CC2,,HUh-7 and HepG2,716 µM

CCn is the concentration with n% toxicity to the cells. An empty or dashed field is not shown. Rows are shuffled and stem from different studies.